Compound potency records, mixed from different reports. Data source: NIAID ChemDB in PubChem.

All rows: toxicity to cultured cells; endpoint: CC50

CCn: concentration that lowers growth or viability of the cells by n%. Conditions beyond the fields shown may differ between rows. Blank or dashed fields: not listed here.

smiles | cells | read by | result
O[C@@H]1[C@H](O)[C@H](O)CO[C@H]1n1c(Br)nc2cc(Cl)c(Cl)cc21 | HSB-2 |  | >126 µM
COc1ccc(Br)cc1/C=C/C(=O)c1c(O)cc(/C=C/c2ccc(N(C)C)cc2)oc1=O | HCT116 | MTT | >10 µM
CNc1cccc2c(S(=O)(=O)Nc3ccc(NC(=O)C(C)(C)C(=O)O)cc3)cccc12 | Human embryonic lung fibroblasts |  | 250 µM
COc1ccccc1CNc1cc(=O)n(O)c2ncccc12 | HeLa |  | 0.09 µM
CC1(C)CCC2=C(O1)c1ccccc1C(=O)C2=O | 293.27.2 |  | 0.3 µM
COc1ccc(/C=C/C(=O)c2c(OB(F)F)cc(/C=C/c3ccc(N(C)C)cc3)oc2=O)cc1 | HCT116 | MTT | >10 µM
C[C@H]1[C@H](O)[C@@H](CO)O[C@H]1n1cc(I)c(N)nc1=O | RPMI8226 |  | 187.6 µg/mL
O=c1[nH]c(=O)n([C@@H]2O[C@H](CO)[C@@H](O)[C@@H]2O)cc1I | CCRF-HSB-2 |  | >270 µM
NCc1cccc(-c2ccc3c(c2)CN(c2cc(=O)n(O)c4ncccc24)CC3)c1 | HeLa |  | <100 µM
CC(C)(C)C(=O)Nc1ccc(NS(=O)(=O)c2cccc3ccccc23)cc1 | Mouse fibroblast cell lines |  | 31.3 µM
C[C@H]1[C@H](O)[C@@H](CO)O[C@H]1n1cc(Br)c(=O)[nH]c1=O | RPMI8226 |  | 60.4 µg/mL
CC(C)CN(C[C@@H](O)[C@H](Cc1ccccc1)NC(=O)[C@]12CC[C@@H](C)[C@H](C)[C@H]1C1=CC[C@@H]3[C@@]4(C)CCC(=O)C(C)(C)[C@@H]4CC[C@@]3(C)[C@]1(C)CC2)S(=O)(=O)c1ccc(N)cc1 | HUVEC | absorbance | >100 µM
OC[C@H]1O[C@@H](n2c(Br)nc3cc(Cl)c(Cl)cc32)[C@H](O)[C@@H]1O | SupT1 | neutral red | 69 µM
CNc1cccc2c(S(=O)(=O)Nc3ccc(NC(=O)C(C)(C)CO)cc3)cccc12 | Human embryonic lung fibroblasts |  | 125 µM
CCCCOc1nc(N)c2c(n1)N(Cc1cccc(CN3CCCC3)c1)CC(=O)N2 | CD4+ T-cell | luminescence | >10 µM
CCCC(=O)OCSc1ccc(F)cc1C(=O)NCCC(N)=O | CEM-SS | XTT / absorbance | >5 µM
Cc1cn([C@@H]2O[C@H](CO)[C@@H](O)[C@@H]2F)c(=O)[nH]c1=O | CCRF-HSB-2 |  | 1.73 µM
COc1ccc(/C=C/C(=O)c2c(O)cc(/C=C/c3ccc(N(C)C)cc3)oc2=O)cc1 | HCT116 | MTT | >10 µM
CC(C)Nc1nc2cc(Cl)c(Cl)cc2n1[C@H]1O[C@@H](CO)[C@H](O)[C@@H]1O | CBL |  | 70 µM
O=c1[nH]c(=O)n([C@@H]2O[C@H](CO)[C@@H](O)[C@@H]2O)cc1/C=C/Cl | CCRF-HSB-2 |  | >328 µM
O=c1c2ccc(-c3ccccc3)cc2c2cccnc2n1O | HeLa |  | <100 µM
C[C@H]1[C@H](O)[C@@H](CO)O[C@H]1n1cc(Cl)c(N)nc1=O | RPMI8226 |  | >100 µg/mL
C=C(C)[C@@H]1CC[C@]2(C(=O)N[C@@H](Cc3ccccc3)[C@H](O)CN(CC(C)C)S(=O)(=O)c3ccc([N+](=O)[O-])cc3)CC[C@]3(C)[C@H](CC[C@@H]4[C@@]5(C)CC[C@H](O)C(C)(C)[C@@H]5CC[C@]43C)[C@@H]12 | HUVEC | absorbance | >100 µM
CCc1cn([C@@H]2S[C@H](CO)[C@@H](O)[C@@H]2F)c(=O)[nH]c1=O | CCRF-HSB-2 |  | >344 µM
CC(C)CN(C[C@@H](O)[C@H](Cc1ccccc1)NC(=O)[C@]12CC[C@@H](C)[C@H](C)[C@H]1C1=CC[C@@H]3[C@@]4(C)CCC(=O)C(C)(C)[C@@H]4CC[C@@]3(C)[C@]1(C)CC2)S(=O)(=O)c1ccc([N+](=O)[O-])cc1 | HUVEC | absorbance | >100 µM
O=c1cc(Cc2ccc(CCc3ccc(F)cc3F)cc2)c2cccnc2n1O | HeLa |  | 0.26 µM
C[C@H]1[C@H](O)[C@@H](CO)O[C@H]1n1cc(Cl)c(=O)[nH]c1=O | RPMI8226 |  | 47.4 µg/mL
CC(C)(CF)C(=O)Nc1ccc(NS(=O)(=O)c2cccc3ccccc23)cc1 | Mouse fibroblast cell lines |  | 28.7 µM
C=C(C)[C@@H]1CC[C@]2(C(=O)N[C@@H](Cc3ccccc3)[C@H](O)CN(CC(C)C)S(=O)(=O)c3ccc(N)cc3)CC[C@]3(C)[C@H](CC[C@@H]4[C@@]5(C)CC[C@H](O)C(C)(C)[C@@H]5CC[C@]43C)[C@@H]12 | HUVEC | absorbance | >100 µM
CN(C)c1cccc2c(S(=O)(=O)Nc3ccc(NC(=O)C(C)(C)C)cc3)cccc12 | Human embryonic lung fibroblasts |  | 65.5 µM
COc1ccc(-c2c(O)c3cccnc3n(O)c2=O)cc1 | HeLa |  | <100 µM
COc1ccc(S(=O)(=O)N(CC(C)C)C[C@@H](O)[C@H](Cc2ccccc2)NC(=O)[C@]23CC[C@@H](C)[C@H](C)[C@H]2C2=CC[C@@H]4[C@@]5(C)CCC(=O)C(C)(C)[C@@H]5CC[C@@]4(C)[C@]2(C)CC3)cc1 | HUVEC | absorbance | >100 µM
CN(C)c1cccc2c(S(=O)(=O)Nc3ccc(NC(=O)C(C)(C)CO)cc3)cccc12 | Human embryonic lung fibroblasts |  | 93 µM
O=c1[nH]c(=O)n([C@@H]2O[C@H](CO)[C@@H](O)[C@@H]2F)cc1I | RPMI8226 |  | 7.64 µg/mL
O=c1[nH]c(=O)n([C@@H]2O[C@H](CO)[C@@H](O)[C@@H]2F)cc1/C=C/Br | CCRF-HSB-2 |  | >285 µM

Repeating the final 2 entries:

smiles	cells	read by	result
O=c1[nH]c(=O)n([C@@H]2O[C@H](CO)[C@@H](O)[C@@H]2F)cc1I	RPMI8226		7.64 µg/mL
O=c1[nH]c(=O)n([C@@H]2O[C@H](CO)[C@@H](O)[C@@H]2F)cc1/C=C/Br	CCRF-HSB-2		>285 µM